Anti-infective test results gathered from many reports (values: NIAID ChemDB through PubChem).

All rows: tests in culture; agent: Mycobacterium avium complex

Rows are shuffled and stem from different studies. An empty or dashed field is not shown. Inhibition is in % at the dose shown (toxicity tests: loss of growth or viability).

SMILES	strain	read by	endpoint	dose	result
CCCCCCCCCCNNC(=O)O[C@H]1[C@H](O[C@@H]2[C@@H](C)[C@H](O[C@H]3C[C@@](C)(OC)[C@@H](OC(C)=O)[C@H](C)O3)[C@@H](C)C(=O)O[C@H](CC)[C@@](C)(O)[C@H](O)[C@@H](C)/C(=N/OCCCC3CCCCC3)[C@H](C)CC2(C)O)O[C@H](C)C[C@@H]1N(C)C	20096 (clarithromycin-resistant)	-	MIC	-	>50 µg/mL
Nc1ccc(S(=O)(=O)c2ccc(N)cc2)cc1	DW11	-	MIC	-	32 µg/mL
CCc1cc(C(N)=S)ccn1	97 strains	agar	inhibition	10 µg/mL	37%
CO[C@H]1/C=C/O[C@@]2(C)Oc3c(C)c(O)c4c(O)c(c5c(c4c3C2=O)NC2(CCN(CC(C)C)CC2)N=5)=NC(=O)/C(C)=C\C=C\[C@H](C)[C@H](O)[C@@H](C)[C@@H](O)[C@@H](C)[C@H](OC(C)=O)[C@@H]1C	N-961 (HIV+)	-	MIC	-	0.25 µg/mL
CCCCNNC(=O)O[C@H]1[C@H](O[C@@H]2[C@@H](C)[C@H](O[C@H]3C[C@@](C)(OC)[C@@H](OC(C)=O)[C@H](C)O3)[C@@H](C)C(=O)O[C@H](CC)[C@@](C)(O)[C@H](O)[C@@H](C)/C(=N/OCCCC3CCCCC3)[C@H](C)CC2(C)O)O[C@H](C)C[C@@H]1N(C)C	20092 (clarithromycin-resistant)	-	MIC	-	0.78 µg/mL
C[C@@H]1CN(c2c(F)c(N)c3c(=O)c(C(=O)O)cn(C4CC4)c3c2F)C[C@H](C)N1	Isolate 90-0827	-	MBC	-	1.5 µg/mL
CC[C@H]1OC(=O)[C@H](C)[C@@H](O[C@H]2C[C@@](C)(OC)[C@@H](OC(C)=O)[C@H](C)O2)[C@H](C)[C@@H](O[C@@H]2O[C@H](C)C[C@H](N(C)C)[C@H]2OC(=O)NNCCc2ccccc2)C(C)(O)C[C@@H](C)/C(=N\OCCCC2CCCCC2)[C@H](C)[C@@H](O)[C@]1(C)O	20039 (clarithromycin-susceptible)	-	MIC	-	1.56 µg/mL
CO[C@H]1/C=C/O[C@@]2(C)Oc3c(C)c(O)c4c(=O)c(c5oc6cc(N7CCN(CC(C)C)CC7)cc(=O)c6nc5c4c3=C2O)NC(=O)/C(C)=C\C=C\[C@H](C)[C@H](O)[C@@H](C)[C@@H](O)[C@@H](C)[C@H](OC(C)=O)[C@@H]1C	N-251 (HIV-)	-	MIC	-	0.05 µg/mL
CC(C)N=C(N)/N=C(\N)NOCCCOc1cc(Cl)c(Cl)cc1Cl	CFR	-	MIC	-	32 µg/mL
CC[C@H]1OC(=O)[C@H](C)[C@@H](OC2C[C@@](C)(OC)[C@@H](O)[C@H](C)O2)[C@H](C)[C@@H](O[C@@H]2O[C@H](C)C[C@H](N(C)C)[C@H]2O)C(C)(O)C[C@@H](C)/C(=N\OCCc2ccccc2)[C@H](C)[C@@H](O)[C@]1(C)O	20096 (clarithromycin-resistant)	-	MIC	-	25 µg/mL
NNC(=O)c1ccncc1	N-265 (HIV-)	-	MIC	-	1 µg/mL
N[C@@H]1CONC1=O	713 strains	agar	inhibition	30 µg/mL	26%
CC[C@H]1OC(=O)[C@H](C)[C@@H](OC2C[C@@](C)(OC)[C@@H](OC(=O)CC3CCCCC3)[C@H](C)O2)[C@H](C)[C@@H](O[C@@H]2O[C@H](C)C[C@H](N(C)C)[C@H]2O)C(C)(O)C[C@@H](C)/C(=N\OCCCOc2ccccc2)[C@H](C)[C@@H](O)[C@]1(C)O	20092 (clarithromycin-resistant)	-	MIC	-	3.13 µg/mL
CC[C@H]1OC(=O)[C@H](C)[C@@H](O[C@H]2C[C@@](C)(OC)[C@@H](O)[C@H](C)O2)[C@H](C)[C@@H](O[C@@H]2O[C@H](C)C[C@H](N(C)C)[C@H]2O)[C@](C)(OC)C[C@@H](C)C(=O)[C@H](C)[C@@H](O)[C@]1(C)O	N-251 (HIV-)	-	MIC	-	8 µg/mL
CC1(C)N=C(N)N=C(N)N1OCCCOc1cc(Cl)c(Cl)cc1Cl	DW5	-	MIC	-	16 µg/mL

For reference, 2 entries again:

SMILES	strain	read by	endpoint	dose	result
NNC(=O)c1ccncc1	N-265 (HIV-)	-	MIC	-	1 µg/mL
CO[C@H]1/C=C/O[C@@]2(C)Oc3c(C)c(O)c4c(=O)c(c5oc6cc(N7CCN(CC(C)C)CC7)cc(=O)c6nc5c4c3=C2O)NC(=O)/C(C)=C\C=C\[C@H](C)[C@H](O)[C@@H](C)[C@@H](O)[C@@H](C)[C@H](OC(C)=O)[C@@H]1C	N-251 (HIV-)	-	MIC	-	0.05 µg/mL